Measured values from several laboratories, pooled; numbers as filed in NIAID ChemDB.

Shared fields: whole-cell or culture tests; agent: Mycobacterium tuberculosis

Percent inhibition refers to the dose given; in toxicity tests it is the harm to the cells.

SMILES,strain or isolate,measure,tested at,method,value
CC1N2C3(c4ccccc4)OC(c4ccccc4)(c4ccccc43)C12c1ccccc1,H37Rv,inhibition,12.5 µg/mL,BACTEC,2%
CCOC(=O)Nc1cc2c(c(N)n1)N=C(c1ccc(Cl)cc1)CO2,H37Rv,EC50,,,>12.5 µg/mL
COc1ccc(C(=O)O)cc1,H37Rv,MIC,,,>100 µg/mL
COc1ccc(C2CC(=O)c3c(OC)cc(OC)c(I)c3O2)cc1,,EC50,,,>12.5 µg/mL
Cl.Nc1ccc2c(c1)S(=O)(=O)c1ccccc1O2,H37Rv,MIC,,,>100 µg/mL
CCOC(=O)Nc1cc2c(c(N)n1)N=C(CN(C)c1ccc(OC)cc1)CN2,H37Rv,EC50,,,>12.5 µg/mL
COc1ccc(/C=c2/sc3n(c2=O)NC(c2ccc(Cl)cc2)NN=3)cc1,H37Rv,inhibition,12.5 µg/mL,BACTEC,33%
CCOC(=O)Nc1cc2c(c(N)n1)[N+](=O)OC(c1ccccc1)NN2,H37Rv,EC50,,,>12.5 µg/mL
C[C@H]1CC[C@@H]2N(C1)C[C@@H]1[C@](O)([C@@H](O)C[C@@]3(O)[C@@H]4CC[C@@H]5[C@]6(O)O[C@@]4(C[C@@]13O)[C@@]5(C)CC[C@@H]6O)[C@]2(C)O,H37Rv,inhibition,12.5 µg/mL,BACTEC,4%
CCOC(=O)Nc1cc(Cl)c(N)c(N)n1,H37Rv,EC50,,,>12.5 µg/mL
N[C@@H](CS(=O)(=O)O)C(=O)O,H37Rv,MIC,,,>100 µg/mL
NC(=O)SCC(=O)NNc1ccccc1,H37Rv,MIC bound,,BACTEC,>12.5 µg/mL
O=C(O)c1cc(=O)n(-c2nc3ccccc3s2)[nH]1,H37Rv,MIC,,,>100 µg/mL
CCOC(=O)Nc1cc(N(C)CC(O)c2ccccc2)c(N)c(N)n1,H37Rv,EC50,,,>12.5 µg/mL
C=C(C)C(=O)OC1CCC2(C)C(CCC3C2CCC2(C)C(c4ccc(=O)oc4)CC4OC432)C1,H37Rv,MIC,,BACTEC,≥12.5 µg/mL
O=C(O)c1ccc(O)c(C(=O)/C=C/c2cccc(I)c2)c1,,EC50,,,>12.5 µg/mL
Cc1c(Cl)cc(Cl)cc1C(=O)c1ccccc1C(=O)O,H37Rv,MIC,,,>100 µg/mL
Nc1ncccc1/C=C/C(=O)c1cc2ccccc2cc1O,,inhibition,12.5 µg/mL,,0%
O=C(O)c1ccc(N=Nc2ccccc2)cc1,H37Rv,MIC,,,>100 µg/mL
COC1=CC(=C2C=C(OC)C(=O)C(OC)=C2)C=C(OC)C1=O,H37Rv,inhibition,12.5 µg/mL,BACTEC,0%
O=C(O)c1ccccc1Nc1ccccc1[N+](=O)[O-],H37Rv,MIC,,,50 µg/mL
CO[C@H]1/C=C/O[C@@]2(C)Oc3c(C)c(O)c4c(O)c(c5c(c4c3C2=O)NC2(CCN(CC(C)C)CC2)N=5)=NC(=O)/C(C)=C\C=C\[C@H](C)[C@H](O)[C@@H](C)[C@@H](O)[C@@H](C)[C@H](OC(C)=O)[C@@H]1C,2219 (rifampin-resistant),MIC,,,0.2 µg/mL
NC(Cc1c[nH]c2ccccc12)C(=O)NC(Cc1c[nH]c2ccccc12)C(=O)NC(Cc1c[nH]c2ccccc12)C(=O)O,H37Rv,MIC bound,,BACTEC,≤12.5 µg/mL
CO[C@H]1/C=C/O[C@@]2(C)Oc3c(C)c(O)c4c(=O)c(c5oc6cc(N7CCN(CC(C)C)CC7)cc(=O)c6nc5c4c3=C2O)NC(=O)/C(C)=C\C=C\[C@H](C)[C@H](O)[C@@H](C)[C@@H](O)[C@@H](C)[C@H](OC(C)=O)[C@@H]1C,2847 (rifampin-sensitive),MIC,,,0.025 µg/mL
CNCC(=O)O,H37Rv,MIC,,,>100 µg/mL
COP(=O)(/C=C/c1cc(C(=O)OCc2ccccc2)n(S(=O)(=O)c2ccccc2)c1)OC,H37Rv,inhibition,12.5 µg/mL,BACTEC,0%
O=C(O)Cc1cccs1,H37Rv,MIC,,,>100 µg/mL
O=C1OC(CO)C(OC2OC(CO)C(O)C(O)C2O)C(O)C1O,H37Rv,MIC bound,,BACTEC,>12.5 µg/mL
COC(=O)c1nc[nH]c1C(=O)OC,H37Rv,MIC,,,>100 µg/mL
C=CCN1CSC(=S)N(CCc2ccc(Cl)c(Cl)c2)C1,H37Rv,inhibition,12.5 µg/mL,BACTEC,52%
CCCC(CS(C)(=O)=O)S(=O)(=O)[O-].[Na+],H37Rv,MIC,,,>100 µg/mL
CN=c1ncc2nc(-c3ccccc3)c(-c3ccccc3)n(C)c-2n1,H37Rv,MIC,,BACTEC,≥12.5 µg/mL
CCOc1cc(O)c(C(=O)/C=C/c2ccccc2)c(OCC)c1,,EC50,,,>12.5 µg/mL

A second listing of 4 rows from above:

SMILES	strain or isolate	measure	tested at	method	value
Nc1ncccc1/C=C/C(=O)c1cc2ccccc2cc1O		inhibition	12.5 µg/mL		0%
CO[C@H]1/C=C/O[C@@]2(C)Oc3c(C)c(O)c4c(=O)c(c5oc6cc(N7CCN(CC(C)C)CC7)cc(=O)c6nc5c4c3=C2O)NC(=O)/C(C)=C\C=C\[C@H](C)[C@H](O)[C@@H](C)[C@@H](O)[C@@H](C)[C@H](OC(C)=O)[C@@H]1C	2847 (rifampin-sensitive)	MIC			0.025 µg/mL
O=C(O)c1cc(=O)n(-c2nc3ccccc3s2)[nH]1	H37Rv	MIC			>100 µg/mL
CNCC(=O)O	H37Rv	MIC			>100 µg/mL

Conditions beyond the fields shown may differ between rows. Blank or dashed fields: not listed here. MIC bound: limit read from a one-dose screen. ECn is the concentration giving n% inhibition of infection, replication or growth.